Results deposited as PubChem BioAssay AID1224833 (University of Georgia, 2016).
The deposit covers about 12,000 reagents; below is a random part of them. Over the whole deposit, about 5,600 (46%) got an active call. 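Active calls cover z-scores past 1 in both directions, so they include lowered as well as raised rotavirus replication.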 Reagents against one gene are numbered here.

Assay: 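Host factors restraining rotavirus as candidate antiviral genes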 (primary screen)
Cells: monkey MA104 kidney cells
Reagent: siRNA pool against human genes, 50 nM
Duration: 48 h knock-down before infection; read 24 h after infection
Treatment: infection with rotavirus strain RV3 two days after transfection; infectious dose for this stage not given
Detection: 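Rotavirus antigen per well by fluorescent immunoassay, normalised to non-targeting control wells on each plate and given as a standard z-score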
Reading the numbers: z-score vs non-targeting control: higher = more rotavirus replication than with non-targeting control
Hit rule: In these data the active calls have z-score vs non-targeting control at about -1 or lower, or at about 1 or higher
Calls: active = z-score beyond 1 either way; inactive = z-score within 1 of zero

For SLAMF7, what was measured?
z-score vs non-targeting control: -1.55; Call: active

How did the screen score IQGAP1?
z-score vs non-targeting control: 1.77; Call: active

With HES7, how do the results read?
z-score vs non-targeting control: -1.12; Call: active

With KLHL23, what was measured?
z-score vs non-targeting control: -0.697; Call: inactive

For PRPH2, what does the deposit list?
z-score vs non-targeting control: 0.535; Call: inactive

What did the screen give for MSANTD1?
z-score vs non-targeting control: -2.48; Call: active

What did the screen give for S1PR3 #1?
z-score vs non-targeting control: 1.35; Call: active

Which result is listed for S1PR3 #2?
z-score vs non-targeting control: 1.55; Call: active

For ALX3, what does the deposit list?
z-score vs non-targeting control: -0.791; Call: inactive

For CAPS2, what does the deposit list?
z-score vs non-targeting control: -0.655; Call: inactive

For FOS, what was measured?
z-score vs non-targeting control: -1.63; Call: active

For GJA1, how do the results read?
z-score vs non-targeting control: -2.84; Call: active

For FOXP1, what was measured?
z-score vs non-targeting control: -1.39; Call: active

How did the screen score CUEDC2?
z-score vs non-targeting control: -0.0313; Call: inactive

For GAN, what was measured?
z-score vs non-targeting control: -0.727; Call: inactive

For KIF20B, what was measured?
z-score vs non-targeting control: -1.65; Call: active

For MICAL2 #1, how do the results read?
z-score vs non-targeting control: -0.56; Call: inactive

Which result is listed for MICAL2 #2?
z-score vs non-targeting control: 2.43; Call: active

Which result is listed for GLS?
z-score vs non-targeting control: -0.849; Call: inactive

What did the screen give for WDR47?
z-score vs non-targeting control: 0.76; Call: inactive

For GZMM, what does the deposit list?
z-score vs non-targeting control: 2.14; Call: active

With OR52I2, what does the deposit list?
z-score vs non-targeting control: -1.77; Call: active

With SCARA5, how do the results read?
z-score vs non-targeting control: -1.32; Call: active

Which result is listed for SYCP2L?
z-score vs non-targeting control: 1.3; Call: active

Which result is listed for LYPD8?
z-score vs non-targeting control: -1.28; Call: active

How did the screen score ZNF488?
z-score vs non-targeting control: 1.9; Call: active

For AANAT, how do the results read?
z-score vs non-targeting control: 0.775; Call: inactive

How did the screen score H2BC1?
z-score vs non-targeting control: -1.83; Call: active

With POU3F2, what does the deposit list?
z-score vs non-targeting control: 0.666; Call: inactive

For VPS37C, how do the results read?
z-score vs non-targeting control: -1.76; Call: active

What is on record for PPCDC?
z-score vs non-targeting control: -0.77; Call: inactive

For SLC35B4, how do the results read?
z-score vs non-targeting control: -0.249; Call: inactive

With CLEC4A, how do the results read?
z-score vs non-targeting control: 0.669; Call: inactive

Which result is listed for HMMR?
z-score vs non-targeting control: 2.55; Call: active

With IL17F, what does the deposit list?
z-score vs non-targeting control: -0.596; Call: inactive

What is on record for SV2C?
z-score vs non-targeting control: 1.55; Call: active

With DDC, how do the results read?
z-score vs non-targeting control: -1.13; Call: active

With FAAH, how do the results read?
z-score vs non-targeting control: -1.07; Call: active

With TACR1, what does the deposit list?
z-score vs non-targeting control: -1.02; Call: active

Which result is listed for NOL8?
z-score vs non-targeting control: 1.06; Call: active

What is on record for COXFA4L3?
z-score vs non-targeting control: -1.56; Call: active

Which result is listed for IFIT3?
z-score vs non-targeting control: -1.59; Call: active

With ELF2, how do the results read?
z-score vs non-targeting control: -0.757; Call: inactive

What is on record for HYKK?
z-score vs non-targeting control: 0.62; Call: inactive

For TEX10, what does the deposit list?
z-score vs non-targeting control: -0.422; Call: inactive

For SNURF, what does the deposit list?
z-score vs non-targeting control: 0.326; Call: inactive

What did the screen give for LRRC37A3?
z-score vs non-targeting control: 0.945; Call: inactive
